PubChem BioAssay AID624099 – ICCB-Longwood – 2012
Here is an unselected part of about 21,000 reagents tested. Over the whole deposit, 497 (2.4%) were called active. 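Higher z means weaker E2 silencing; only reporter increases were scored, and knock-downs that hurt cell survival may mask genuine repressor factors.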 A number with no mark means an inactive call.

Test: 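Knock-downs relieving repression by E2 of an HPV18 LCR luciferase reporter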 (primary screen)
Cell system: human C33A cervical carcinoma cells (HPV-negative) stably expressing BPV1 E2 and an HPV18 LCR luciferase reporter
Knock-down reagent: siRNA pool against human genes, 40 nM
Duration: 72 h
Read-out: 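Per-well luciferase luminescence, z-scored on each plate against the plate mean and SD with control wells left out, then averaged across three replicate plates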
Direction: mean z-score and z-score: higher = stronger reporter signal, weaker E2 silencing
Active means: 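Mean z ≥ 2 together with z ≥ 2 in two or more of the three replicates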

LOC400010 (retired record) (GeneID 400010) — mean z-score: 0.06; z-score, replicate A: 0.26; z-score, replicate B: -0.23; z-score, replicate C: 0.15
EIF2S2 (GeneID 8894) — mean z-score: -2.22; z-score, replicate A: -2.07; z-score, replicate B: -2.48; z-score, replicate C: -2.11
LAT (GeneID 27040) — mean z-score: -0.57; z-score, replicate A: -0.7; z-score, replicate B: -0.3; z-score, replicate C: -0.7
TMOD2 (GeneID 29767) — mean z-score: 2.29 (active); z-score, replicate A: 2.69; z-score, replicate B: 2.21; z-score, replicate C: 1.99
RNF217 (GeneID 154214) — mean z-score: -0.12; z-score, replicate A: -0.03; z-score, replicate B: -0.05; z-score, replicate C: -0.28
CITED2 (GeneID 10370) — mean z-score: -0.23; z-score, replicate A: -0.36; z-score, replicate B: -0.33; z-score, replicate C: 0
MTMR9LP (GeneID 339483) — mean z-score: 0.1; z-score, replicate A: 0.15; z-score, replicate B: -0.05; z-score, replicate C: 0.18
PANK4 (GeneID 55229) — mean z-score: 0.64; z-score, replicate A: 0.33; z-score, replicate B: 1.01; z-score, replicate C: 0.59
H2BC12L (GeneID 54145) — mean z-score: -0.29; z-score, replicate A: 0.04; z-score, replicate B: -0.27; z-score, replicate C: -0.64
TSPYL4 (GeneID 23270) — mean z-score: -0.11; z-score, replicate A: -0.62; z-score, replicate B: 0.28; z-score, replicate C: 0
PIGY (GeneID 84992) — mean z-score: 1.06; z-score, replicate A: 1.16; z-score, replicate B: 0.9; z-score, replicate C: 1.12
REDIC1 (GeneID 283461) — mean z-score: 0.73; z-score, replicate A: 0.22; z-score, replicate B: 0.96; z-score, replicate C: 1.01
